In the series the target is PrfA (Listeria monocytogenes) (UniProt P22262). In words: BLI. The following applies: residues 1-237.

The chains behind the UniProt entries cited, without tags or fusion partners.
UniProt P22262, whole entry: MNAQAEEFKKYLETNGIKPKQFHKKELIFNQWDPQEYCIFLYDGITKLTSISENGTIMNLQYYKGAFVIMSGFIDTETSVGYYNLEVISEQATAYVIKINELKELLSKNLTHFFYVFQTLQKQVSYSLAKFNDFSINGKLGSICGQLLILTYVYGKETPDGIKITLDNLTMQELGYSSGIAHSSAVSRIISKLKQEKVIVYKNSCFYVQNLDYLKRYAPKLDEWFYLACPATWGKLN

Negatives hold for the conditions tested. The exact form of at least one protein or probe is not confirmed. The comparison behind a weaker result is the experiment's own reference, which may not be listed here. At least one verdict was read from the data and is not stated in words by the source.

On to “TGTCCCTTTATCGTCGTTAACAAATGTTAATGCCTCGACA (double strand) [PplcA/Phly PrfA box DNA]”, for which the binding result is “binds” (5 mM GSH); “binds” (no peptide, no GSH); “binds more weakly” (peptide EVFL, PrfA:peptide 1:100); “no binding” (peptide LL, PrfA:peptide 1:100, DNA binding completely blocked); “binds more weakly” (peptide RGLL, PrfA:peptide 1:100); “binds more weakly” (peptide STLL, PrfA:peptide 1:100). In addition, the binding result is, setting by setting: (peptide TEPL, PrfA:peptide 1:100) “binds more weakly”; (peptide TKPR, PrfA:peptide 1:100) “binds more weakly”.

For the origin of these results see paper doi:10.1101/2024.05.24.595734.
